Compound potency records, mixed from different reports. Data source: NIAID ChemDB in PubChem.

Common to all: host cell toxicity; cells: MT-2; endpoint: CC50

CCn is the concentration with n% toxicity to the cells.

structure | read by | value
O=C1N(c2ccccc2)c2ccccc2C1(Cc1ccncc1)Cc1ccc([N+](=O)[O-])cc1 |  | 39 µM
CC[C@H](C)[C@H](NC(=O)C(=O)OC[C@H]1O[C@@H](n2cc(C)c(=O)[nH]c2=O)C[C@@H]1N=[N+]=[N-])C(=O)O | trypan blue | 11 µM
CCCC[C@@H]1NC(=O)[C@@H](NC(=O)[C@H](CO)NC(=O)OC(C)(C)C)CCCCOc2ccc(cc2)C[C@@H]([C@H](O)CN(CCC(C)C)S(=O)(=O)c2ccc(NC(C)=O)cc2)NC1=O | trypan blue | 9.435 µM
CC(C)OC(=O)[C@H](C)N[P@@](=O)(CO[C@H](C)Cn1cnc2c(N)ncnc21)Oc1ccccc1 | XTT / absorbance | >100 µM
CC1=CC2=C(C(C)C)C(O)C(=O)/C(=C\N[C@@H](C(=O)O)C(C)C)C2C(O)=C1c1c(C)cc2c(C(C)C)c(O)c(O)c(C=N[C@H](C(=O)O)C(C)C)c2c1O.[Na+].[Na+] | MTT | 62.41 µM
CNC(=O)C(c1ccccc1)(c1ccccc1)[C@H]1CCCN(CCc2ccc3c(c2)CCO3)C1 | XTT | 156 µM
COc1cc([C@@H]2c3cccc4cccc(c34)C3(SCCCS3)[C@@H]3COC(=O)[C@@H]23)cc(OC)c1OC | propidium iodide | >50 µM
Nc1ccn([C@H]2CC[C@@H](CO)O2)c(=O)n1 |  | >10 µg/mL
CC(C)(C)NC(=O)[C@@H]1C[C@@H]2CCCC[C@@H]2CN1C[C@@H](O)[C@H](Cc1ccccc1)NC(=O)[C@H](CC(N)=O)NC(=O)c1ccc2ccccc2n1 | MTT | 16.4 µM
O=C(O)c1cn(C2CC2)c2cc(N3CCNCC3)c(F)cc2c1=O | ATP | >100 µM
OC(CNCC1CCCO1)Cn1c2ccc(Br)cc2c2cc(Br)ccc21 | ATP / luminescence | 10.8 µM
CC(C)OC(=O)OCOP(=O)(CO[C@H](C)Cn1cnc2c(N)ncnc21)OCOC(=O)OC(C)C | XTT / absorbance | 50 µM
Cc1c(O)cccc1C(=O)N[C@@H](CSc1ccccc1)[C@H](O)CN1C[C@H]2CCCC[C@H]2C[C@H]1C(=O)NC(C)(C)C | neutral red | 155 µM
Cc1cn([C@H]2C[C@H](N=[N+]=[N-])[C@@H](COC(=O)c3ccncc3)O2)c(=O)[nH]c1=O | sulforhodamine | 400 µM
CC(=O)Oc1ccc(/C=C/C(=O)O[C@@H](C(=O)O)[C@@H](OC(=O)/C=C/c2ccc(OC(C)=O)c(OC(C)=O)c2)C(=O)O)cc1OC(C)=O | neutral red | >18.6 µM
NC(=O)C(c1ccccc1)(c1ccccc1)C1CCCN(CCOc2ccccc2)C1 | XTT | 54 µM
O=C(O)[C@H](O)[C@@H](O)C(=O)O | neutral red | >1000 µM
Cc1ccnc2c1NC(=O)c1cccnc1N2C1CC1 | neutral red | 743 µM
CC(C)CN(C[C@@H](O)[C@H](Cc1ccccc1)NC(=O)O[C@H]1CCOC1)S(=O)(=O)c1ccc(N)cc1 | MTT | >100 µM
COC(=O)[C@H]1[C@H](c2cc(OC)c(OC)c(OC)c2)c2c(ccc3ccccc23)C(=O)[C@]12CCN=N2 | propidium iodide | >50 µM
O=C(/C=C/c1ccc(O)c(O)c1)N[C@@H](COC(=O)/C=C/c1ccc(O)c(O)c1)C(=O)O | neutral red | >39 µM
CC(=O)c1c(O)c(C)c(O)c(Cc2c(O)c3c(c(C(=O)/C=C/c4ccccc4)c2O)OC(C)(C)C=C3)c1O | ATP / luminescence | 5.769 µM
CCCc1c([Se]c2ccccc2)n(COCCO)c(=O)[nH]c1=O | MTT | >61.5 µM
CC(C)[C@H](N)C(=O)O.[Na+] | MTT | 62.41 µM
CC(C)CN(C[C@@H](O)[C@H](Cc1ccccc1)NC(=O)O[C@H]1CCOC1)S(=O)(=O)c1ccc(N)cc1 | neutral red | 9 µM
Cc1cn([C@H]2C[C@H](N=[N+]=[N-])[C@@H](COC(=O)C(=O)N[C@H](C(=O)O)C(C)C)O2)c(=O)[nH]c1=O | sulforhodamine | 500 µM
CCCCCCCCN1C(=O)C(CC2=CCN(C)CC2)(CC2=CCN(C)CC2)c2ccccc21 |  | 36 µM
CC(C)(C)NC(=O)[C@@H]1C[C@@H]2CCCC[C@@H]2CN1C[C@@H](OC(=O)C(CS)NC(=O)CCCCON)[C@H](Cc1ccccc1)NC(=O)[C@H](CC(N)=O)NC(=O)c1ccc2ccccc2n1 | MTT | 45 µM
O=C(O)[C@@H](Cc1ccc(O)c(O)c1)[C@@H](Cc1ccc(O)c(O)c1)C(=O)O | neutral red | >76 µM
NC(=O)C(c1ccccc1)(c1ccccc1)[C@H]1CCCN(CCc2ccc(Cl)cc2)C1 | XTT | 19 µM
CCCCCCCCCCCCCCCCOCCCOP(=O)(O)COCCNc1cc(N)nc(N)n1 | propidium iodide | 20 µM
O=C1CC(C2(c3cccc4ccccc34)SCCCS2)CO1 | propidium iodide | >50 µM
CN(C)CCOc1cc2c(c3ccccc13)-c1ccccc1C2=O | ATP / luminescence | 28.1 µM
C[C@H](N)C(=O)O.[Na+] | MTT | 84.64 µM
O=C(/C=C/c1ccc(O)c(O)c1)NCC(OC(=O)/C=C/c1ccc(O)c(O)c1)C(=O)O | neutral red | >175 µM
CN1CCC(CC2(CC3CCN(C)CC3)C(=O)N(c3ccccc3)c3ccccc32)CC1 |  | >99 µM
C#C[C@@]1(CO)C=C[C@H](n2cc(C)c(=O)[nH]c2=O)O1 |  | >100 µM
CC(C)Nc1cccnc1N1CCN(C(=O)c2cc3cc(N=CN(C)C)ccc3[nH]2)CC1 |  | 28 µM
CCCCCCCCCCCCCCCCOCCCOP(=O)(O)CO[C@H](CO)Cn1cc(F)c(=O)[nH]c1=O | propidium iodide | 35 µM
CC(C)OC(=O)[C@H](C)N[P@](=O)(OC[C@H]1O[C@@](C#N)(c2ccc3c(N)ncnn23)[C@](C)(O)[C@@H]1OC(=O)C(C)C)Oc1ccccc1 | ATP | >100 µM
CN(CCO)CC(O)Cn1c2ccc(Cl)cc2c2cc(Cl)ccc21 | ATP / luminescence | 16.2 µM
CCCCCCCCCCNC(=O)[C@H](Cc1ccc(O)c(O)c1)[C@@H](Cc1ccc(O)c(O)c1)C(=O)O | neutral red | >34 µM
O=c1[nH]cnc2c1ncn2[C@H]1CC[C@@H](CO)O1 | neutral red | 985 µM
O=C(/C=C/c1ccc(O)c(O)c1)Nc1cc(NC(=O)/C=C/c2ccc(O)c(O)c2)cc(C(=O)O)c1 | neutral red | >47 µM
Nc1nc(NC2CC2)c2ncn(CCOCP(=O)(O)O)c2n1 | propidium iodide | 4.2 µM
C=C(C(=O)O)[C@@H]1CC[C@]2(C)CC[C@]3(C)[C@H](CC[C@@H]4[C@@]5(C)CCC(=O)C(C)(C)[C@@H]5CC[C@]43C)[C@@H]12 | ATP | 100 µM
Cc1c(O)cccc1C(=O)N[C@@H](CSc1ccccc1)[C@H](O)CN1C[C@H]2CCCC[C@H]2C[C@H]1C(=O)NC(C)(C)CO | MTT | 92.6 µM
Nc1ccn([C@H]2CC[C@@H](CO)O2)c(=O)n1 | neutral red | 119 µM
C[C@@H]1O[C@H]2OCCC[C@H]2[C@H]1OC(=O)N[C@@H](Cc1ccccc1)[C@H](O)CN1C[C@H]2CCCC[C@H]2C[C@H]1C(=O)NC(C)(C)C | MTT | 36.4 µM
CC[C@H](C)[C@H](N)C(=O)O.[Na+] | MTT | 65.62 µM
C=C1C(=O)c2ccc3ccccc3c2[C@@H](c2cc(OC)c(OC)c(OC)c2)[C@@H]1C(=O)OC | propidium iodide | <25 µM
CC(C)Cc1nc2ccccc2[nH]c1=O | trypan blue | 114 µM
CCCCC(=O)N[C@H]1CCCCOc2ccc(cc2)C[C@@H]([C@H](O)CN(CCC(C)C)S(=O)(=O)c2ccc(NC(C)=O)cc2)NC(=O)[C@H](CCCC)NC1=O | trypan blue | 9.86 µM
Nc1nc(=O)n(C[C@@H](CO)OCP(=O)(O)O)cc1F | propidium iodide | >100 µM
CC(C)(C)NC(=O)[C@@H]1C[C@@H]2CCCC[C@@H]2CN1C[C@@H](O)[C@H](Cc1ccccc1)NC(=O)[C@H](CC(N)=O)NC(=O)c1ccc2ccccc2n1 | MTT | 11 µM
O=C(/C=C/c1ccc(O)c(O)c1)NCCC[C@H](NC(=O)/C=C/c1ccc(O)c(O)c1)C(=O)O | neutral red | >43 µM

For reference, 7 entries again:

| structure | read by | value |
|---|---|---|
| CCCCCCCCN1C(=O)C(CC2=CCN(C)CC2)(CC2=CCN(C)CC2)c2ccccc21 |  | 36 µM |
| Cc1ccnc2c1NC(=O)c1cccnc1N2C1CC1 | neutral red | 743 µM |
| COC(=O)[C@H]1[C@H](c2cc(OC)c(OC)c(OC)c2)c2c(ccc3ccccc23)C(=O)[C@]12CCN=N2 | propidium iodide | >50 µM |
| C[C@@H]1O[C@H]2OCCC[C@H]2[C@H]1OC(=O)N[C@@H](Cc1ccccc1)[C@H](O)CN1C[C@H]2CCCC[C@H]2C[C@H]1C(=O)NC(C)(C)C | MTT | 36.4 µM |
| C=C(C(=O)O)[C@@H]1CC[C@]2(C)CC[C@]3(C)[C@H](CC[C@@H]4[C@@]5(C)CCC(=O)C(C)(C)[C@@H]5CC[C@]43C)[C@@H]12 | ATP | 100 µM |
| O=C1CC(C2(c3cccc4ccccc34)SCCCS2)CO1 | propidium iodide | >50 µM |
| CCCCC(=O)N[C@H]1CCCCOc2ccc(cc2)C[C@@H]([C@H](O)CN(CCC(C)C)S(=O)(=O)c2ccc(NC(C)=O)cc2)NC(=O)[C@H](CCCC)NC1=O | trypan blue | 9.86 µM |

An empty or dashed field is not shown. Neighbouring rows are from separate reports.